PubChem BioAssay AID624099 | ICCB-Longwood, 2012
The whole screen tested about 21,000 reagents; this is a random part of them. 497 of them (2.4%) count as active. 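Higher z means weaker E2 silencing; only reporter increases were scored, and knock-downs that hurt cell survival may mask genuine repressor factors.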

Purpose: 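Human genes that papillomavirus E2 requires to repress the HPV18 LCR promoter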 (primary screen)
Cells: human C33A cervical carcinoma cells (HPV-negative) stably expressing BPV1 E2 and an HPV18 LCR luciferase reporter
Reagents: siRNA pool against human genes, 40 nM
Timing: 72 h
Measurement: 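HPV18 LCR reporter light per well, converted to plate-wise z-scores that exclude control wells, and averaged over triplicate plates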
Scale: mean z-score and z-score: higher = stronger reporter signal, weaker E2 silencing
Active means: 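Mean z ≥ 2 together with z ≥ 2 in two or more of the three replicates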

Which result is listed for KCNK12 [SID134311674]?
mean z-score: -0.85; z-score, replicate A: -0.7; z-score, replicate B: -1.1; z-score, replicate C: -0.77; activity call: inactive

With OGFR [SID134322993], how do the results read?
mean z-score: 0.41; z-score, replicate A: 0.46; z-score, replicate B: 0.28; z-score, replicate C: 0.48; activity call: inactive

What is on record for HACD2 [SID134326784]?
mean z-score: -0.64; z-score, replicate A: -0.67; z-score, replicate B: -0.49; z-score, replicate C: -0.75; activity call: inactive

With CCHCR1 [SID134324176], what does the deposit list?
mean z-score: 0.93; z-score, replicate A: 1.26; z-score, replicate B: 0.69; z-score, replicate C: 0.83; activity call: inactive

For PFKM [SID56479129], how do the results read?
mean z-score: -0.15; z-score, replicate A: -0.8; z-score, replicate B: -0.29; z-score, replicate C: 0.64; activity call: inactive

What is on record for LINC00939 [SID134328392]?
mean z-score: 0; z-score, replicate A: 0.01; z-score, replicate B: 0.12; z-score, replicate C: -0.13; activity call: inactive

What did the screen give for CARD14 [SID56478796]?
mean z-score: -0.73; z-score, replicate A: -0.39; z-score, replicate B: -1.02; z-score, replicate C: -0.78; activity call: inactive

Which result is listed for FAHD1 [SID134318806]?
mean z-score: -0.71; z-score, replicate A: -0.38; z-score, replicate B: -0.92; z-score, replicate C: -0.84; activity call: inactive

For TULP4 [SID134317993], how do the results read?
mean z-score: 0.62; z-score, replicate A: 0.5; z-score, replicate B: 0.69; z-score, replicate C: 0.68; activity call: inactive

Which result is listed for CEACAM8 [SID134321020]?
mean z-score: 0.56; z-score, replicate A: 0.84; z-score, replicate B: 0.02; z-score, replicate C: 0.84; activity call: inactive

With ZBED4 [SID134324828], what was measured?
mean z-score: -0.88; z-score, replicate A: -1.01; z-score, replicate B: -0.76; z-score, replicate C: -0.86; activity call: inactive

For FBXW4P1 [SID134314430], what does the deposit list?
mean z-score: -0.41; z-score, replicate A: -0.19; z-score, replicate B: -0.53; z-score, replicate C: -0.5; activity call: inactive

Just “z-score, replicate B”, for 2 of the entries above:
FAHD1 [SID134318806]: -0.92
TULP4 [SID134317993]: 0.69
